Construct, isoform or probe ends are uncertain for at least one entry. No signal at the amounts used counts as a negative.
Tested on: KPAF4-WT (Trypanosoma brucei (procyclic 29-13))
Assay: EMSA
Settings: EMSA on 3-12% native PAGE, 5' radiolabeled RNA, increasing KPAF4; native protein; protein details: C-terminal TAP; label: 5' 32P

| Sequence | binding result |
| --- | --- |
| GGGUGGUGGUUUUGUUGAUUUACCCGGUGUAAAGUAUUAUACACGUAUUGUAAGUUAGAUUUAGAUAUAAGAUAUGUUUUUAAAAAAAAAAAAAAAAAAAA [RPS12 A-tail RNA] | binds |
| GGGUGGUGGUUUUGUUGAUUUACCCGGUGUAAAGUAUUAUACACGUAUUGUAAGUUAGAUUUAGAUAUAAGAUAUGUUUUU [RPS12 No-tail RNA] | no binding |
| GGGUGGUGGUUUUGUUGAUUUACCCGGUGUAAAGUAUUAUACACGUAUUGUAAGUUAGAUUUAGAUAUAAGAUAUGUUUUUUUUUUUUUUUUUUUUUUUUU [RPS12 U-tail RNA] | no binding |

Reference: PMC6329795
